Measurements taken from patent US20240409618A1 (WISTAR INSTITUTE OF ANATOMY AND BIOLOGY, published 2024).

B1: DMAb 2381_FcWT (antibody)
heavy: not shown
light: EVVLTQSPGTLSLSPGERATLSCRASQSVSSSYLAWYQQKPGQAPRLLIYGASSRATGIPDRFSGSGSGTDFTLTISRLEPEDFAVYHCQHFGSSSQWTFGQGTKVEIKRTVAAPSVFIFPPSDEQLKSGTASVVCLLNNFYPREAKVQWKVDNALQSGNSQESVTEQDSKDSTYSLSNTLTLSKADYEKHKVYACEVTHQGLSSPVTKSFNRGEC
notes: also called 2381 (WT); 2381(m1)
B2: DMAb 2381_FcTM (antibody)
heavy: QMQLVQSGPEVKKPGTSVKVSCKASGFTFTSSAVQWVRQARGQRLEWIGWIAVGSGNTNYAQKFQERVSITRDMSTSTAYMELSSLRSEDTAVYYCAAPYCSRTSCHDAFDIWGQGTKVTVSSASTKGPSVFPLAPSSKSTSGGTAALGCLVKDYFPEPVTVSWNSGALTSGVHTFPAVLQSSGLYSLSSVVTVPSSSLGTQTYICNVNHKPSNTKVDKKVEPKSCDKTHTCPPCPAPEFEGGPSVFLFPPKPKDTLMISRTPEVTCVVVDVSHEDPEVKFNWYVDGVEVHNAKTKPREEQYNSTYRVVSVLTVLHQDWLNGKEYKCKVSNKALPASIEKTISKAKGQPREPQVYTLPPSRDELTKNQVSLTCLVKGFYPSDIAVEWESNGQPENNYKTTPPVLDSDGSFFLYSKLTVDKSRWQQGNVFSCSVMHEALHNHYTQKSLSLSPGK
light: EVVLTQSPGTLSLSPGERATLSCRASQSVSSSYLAWYQQKPGQAPRLLIYGASSRATGIPDRFSGSGSGTDFTLTISRLEPEDFAVYHCQHFGSSSQWTFGQGTKVEIKRTVAAPSVFIFPPSDEQLKSGTASVVCLLNNFYPREAKVQWKVDNALQSGNSQESVTEQDSKDSTYSLSNTLTLSKADYEKHKVYACEVTHQGLSSPVTKSFNRGEC

How the values were obtained:
[1] = biological target: T1, RBD-F486A recombinant protein (AstraZeneca) (SARS-CoV-2, UniProt P0DTC2 319-541); experiment: ELISA, pooled sera on coated mutant RBD
T1 construct: domain: RBD

[2] = biological target: T1, RBD-F486A recombinant protein …

| Binder | binding result [1] | binding result [2] |
| --- | --- | --- |
| B1 | no binding |  |
| B2 |  | no binding |

Where two headings read alike, the source gives them in different places.
